Reference: patent US20060111324A1, “(+)-Ttrans-isomers of (1-phosphonomethoxy-2-alkylcyclopropyl)methyl nucleoside derivatives, process for the preparation of stereoisomers thereof, and use of antiviral agents thereof” (LG Life Sciences, priority 2002, published 2006)

Experiments:
Hepatitis B Virus (HBV) = assay: Inhibition of hepatitis B virus replication in HepG2.2.15 cells, quantitative PCR of culture medium; assay type: cell-based; conditions: read-out: EC50 (μM) in HBV, 10 days drug treatment, HBV DNA in medium by PCR
HepG2.2.15 cell = assay: Determination of cytotoxicity (MTT) in HepG2.2.15 cells; conditions: read-out: CC50 (μM) in HepG2.2.15, 10th day of drug treatment

## ({(±)-trans-1-[(6-amino-9H-purine-9-yl)methyl]-2-ethylcyclopropyl}oxy) methylphosphonic acid
Hepatitis B Virus (HBV)
  EC50: > 30 µM
HepG2.2.15 cell
  CC50: > 1000 µM

This is a selection: effects in other tests are not listed, and their absence says nothing.
